Measured values: paper PMC12798060
For at least one entry, the source does not settle the construct or the ends of the probe.

Sequences of proteins named here, by UniProt entry; tags and fusion partners are left off. A change or cut given only in a name is not applied to a line headed by its entry.
UniProt P76141: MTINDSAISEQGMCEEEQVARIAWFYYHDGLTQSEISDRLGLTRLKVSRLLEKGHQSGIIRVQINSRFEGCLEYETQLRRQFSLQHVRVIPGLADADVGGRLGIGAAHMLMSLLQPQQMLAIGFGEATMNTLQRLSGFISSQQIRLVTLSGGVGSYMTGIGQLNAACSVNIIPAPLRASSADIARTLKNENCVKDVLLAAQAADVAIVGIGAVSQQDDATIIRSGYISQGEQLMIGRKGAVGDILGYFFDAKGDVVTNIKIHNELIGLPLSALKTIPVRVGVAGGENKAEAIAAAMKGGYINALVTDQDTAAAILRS

Target: LsrR (GST-LsrR) (UniProt P76141)
Test: EMSA
Conditions: 2-6 uM LsrR, 5 nM probe, complex abolished by unlabeled p-cysN; EMSA: Light Shift EMSA kit (binding buffer not stated), 4% native PAGE, 100 V, 4 C; recombinant protein; residues 1-317; protein details: GST; label: Cy5.5; probe letters rebuilt from the primers and the genome

“AATCATCGAAGAGATGCTGGTTTCCACCACCAGTGAACGTCAGGGCCGCGTGATTGACCGCGACCAGGCGGGGTCTATGGAGCTGAAAAAACGTCAGGGGTATTTTTAAGATGAACACCGCACTTGCACAA (double strand) [p-cysN (cysN promoter, 131 bp)]”: binds.
